Compound potency records, mixed from different reports. Data source: NIAID ChemDB in PubChem.

Common to all: growth or infection tests; species: HIV-1; cells: CEM; measure: EC50

Lines come from different laboratories, so protocols vary. ECn: concentration that inhibits the pathogen or its effect by n%. An empty or dashed field is not shown.

Cc1ccnc2c1N(C(=O)CNC(=O)c1cnccn1)C(=O)c1cccnc1N2C1CC1 ; method: cytopathic effect / XTT ; value: <0.0636 µM
CC(=O)Nc1ccc(S(=O)(=O)N(CC2CCCC2)C[C@@H](O)[C@H](Cc2ccccc2)NC(=O)OCc2cccnc2)cc1 ; strain: IIIB ; method: p24 ; value: <0.101 µM
COC(=O)c1cc(NC(=O)C2=C(C)OCCS2)ccc1Cl ; strain: Nevirapine-resistant (RT V106A) ; mutations: RT-V106A ; method: syncytia ; value: >10 µg/mL
CC(=O)Nc1nc2c(ncn2C/C=C\CN2C(=O)c3ccccc3C2=O)c(=O)[nH]1 ; method: syncytia ; value: >100 µM
CC(C)CN(C[C@@H](O)[C@H](Cc1ccccc1)NC(=O)O[C@H]1CCOC1)S(=O)(=O)c1ccc(F)c(F)c1 ; strain: IIIB ; method: p24 ; value: <10 µM
CC1=C(C(=O)Nc2cc(C(=O)OC(C)C)c(C)cc2F)SCCO1 ; strain: TSAO-resistant (RT E138K) ; mutations: RT-E138K ; method: syncytia ; value: >10 µg/mL
CC(=O)Nc1cc(S(=O)(=O)N(CC(C)C)C[C@@H](O)[C@H](Cc2ccccc2)NC(=O)[C@H](CC(N)=O)NC(=O)c2ccc3ccccc3n2)ccc1F ; strain: IIIB ; method: p24 ; value: <0.101 µM
CC(C)=CCOc1cc(NC(=S)c2ccoc2C)ccc1Cl ; strain: IIIB ; mutations: RT-E138K ; method: syncytia ; value: 0.015 µM
Cc1cn(C2OC(CO[Si](C)(C)C(C)(C)C)C3(OS(=O)(=O)C=C3N)C2O[Si](C)(C)C(C)(C)C)c(=O)n(CCCNC(=O)c2ccc(N=[N+]=[N-])cc2O)c1=O ; strain: IIIB ; method: syncytia ; value: 0.37 µM
O=C1c2ccccc2C(=O)N1C/C=C/Cn1cnc2c(Cl)ncnc21 ; method: syncytia ; value: >100 µM
COc1ccc(S(=O)(=O)N(CC(O)CN(CC2CCCC2)S(=O)(=O)c2ccccc2)CC2CCCC2)cc1 ; strain: IIIB ; method: p24 ; value: <1 µM
CC1(C)SCc2nc3ncccc3n21 ; strain: RF ; method: cytopathic effect / XTT ; value: >386 µM
COc1cc(C)c(-c2ccc(O)c3c2C[C@@H](C)N[C@@H]3C)c2ccc(-c3ccc4c(-c5ccc(O)c6c5C[C@@H](C)N[C@@H]6C)c(C)cc(OC)c4c3O)c(O)c12 ; strain: RF ; value: 27 µg/mL
Cc1cc(C)cc(S(=O)(=O)c2c(C(N)=O)[nH]c3ccc(Cl)cc23)c1 ; strain: IIIB ; mutations: WT ; value: >10 µM
CCn1cc(C(=O)O)c(=O)c2cc(F)c(N3CCN(CC(=O)N4C(=O)c5cccnc5N(C5CC5)c5nccc(C)c54)CC3)cc21 ; method: cytopathic effect / XTT ; value: 1.29 µM
O=C1c2ccccc2C(=O)N1C/C=C\Cn1ccc(=O)[nH]c1=O ; method: syncytia ; value: >100 µM
O=C(Cc1cn([C@H]2C=C[C@@H](CO)O2)c(=O)[nH]c1=O)NCCCCCCCCNC(=O)c1c2ccccc2nc2ccccc12 ; strain: LAI ; method: RT activity ; value: >10 µM
CC1=C(C(=O)Nc2cc(Cl)cc(C(=O)OC(C)C)c2)SCCO1 ; strain: TIBO-resistant (RT L100I) ; mutations: RT-L100I ; method: syncytia ; value: 5 µg/mL
Nc1nc(N)nc(OC[C@H]2CC[C@@H](COCc3ccccc3)O2)n1 ; strain: IIIB ; method: syncytia ; value: >250 µM
Cc1cn(C(CF)CCCO)c(=O)[nH]c1=O ; strain: IIIB ; method: cytopathic effect ; value: >100 µg/mL
c1ccc(C2SCc3nc4ncccc4n32)cc1 ; strain: RF ; method: cytopathic effect / XTT ; value: >384 µM
CC(C)Nc1ncnc2c1ncn2C1C[C@H](CO)[C@@H](CO)C1 ; value: >100 µg/mL
CC(C)CN(C[C@@H](O)[C@H](Cc1ccccc1)NC(=O)OC(C)(C)C)S(=O)(=O)c1ccc(F)cc1F ; strain: IIIB ; method: p24 ; value: <1.001 µM
O=C(O)c1cc(C(c2ccc(O)c(C(=O)O)c2)c2ccc(O)c(C(=O)O)c2)ccc1O ; strain: IIIB ; method: cytopathic effect / XTT ; value: 77 µM
CCCCCCCCCCCC(=O)Oc1ccc(COP(=O)(OCc2ccc(OC(=O)CCCCCCCCCCC)cc2)OP(=O)([O-])OC[C@@H]2C=C[C@H](n3ccc(=O)[nH]c3=O)O2)cc1 ; strain: IIIB ; method: syncytia ; value: >50 µM
Nc1nc(OC[C@H]2CC[C@@H](CO)O2)c2[nH]cnc2n1 ; strain: IIIB ; method: syncytia ; value: >250 µM
COc1ccc(S(=O)(=O)N(CC(C)C)C[C@@H](O)CCN(CC2CCCC2)S(=O)(=O)c2ccc3nc[nH]c3c2)cc1 ; strain: IIIB ; method: p24 ; value: <1 µM
COc1ccc2c(c1)C(=O)C(=O)C(C1=C(Cl)C(=O)c3ccccc3C1=O)=C2O ; strain: IIIB ; method: cytopathic effect / MTT ; value: 2.4 µM
Nc1ncnc2c1ncn2C/C=C/CN1C(=O)c2ccccc2C1=O ; method: syncytia ; value: >4 µM
CC(C)=CCOc1cc(NC(=S)c2ccsc2C)ccc1Cl ; method: syncytia ; value: 0.009 µM
Cc1cc(Cl)cc2c1S(=O)(=O)n1c(C)cnc1S2 ; method: cytopathic effect / XTT ; value: 9 µM
Nc1ccn(CCCC(O)CF)c(=O)n1 ; strain: IIIB ; method: cytopathic effect ; value: >100 µg/mL
Nc1ccc([C@H]2CC(=O)[C@@H](CO)O2)c(F)c1 ; value: >250 µM
Cc1cn([C@H]2C=C[C@@H](CO)O2)c(=O)[nH]c1=O ; strain: IIIB ; method: syncytia ; value: 0.52 µM
Cc1ccc(CSc2cc(NC(=S)c3ccoc3C)ccc2Cl)cc1 ; method: syncytia ; value: 0.312 µM
COC(=O)C(C)NP(=O)(OC[C@H]1S[C@H](n2cc(F)c(=O)[nH]c2=O)CC1O)Oc1ccccc1 ; value: >100 µM
O=C1c2ccccc2C(=O)N1C/C=C/Cn1cc(F)c(=O)[nH]c1=O ; method: syncytia ; value: >20 µM
COc1ccc(S(=O)(=O)N(CC(C)C)C[C@@H](O)CCN(CC2CCCC2)S(=O)(=O)C2CS(=O)(=O)CC2O)cc1 ; strain: IIIB ; method: p24 ; value: <1 µM
Fc1cccc(F)c1C1SCc2nc3ncccc3n21 ; strain: RF ; method: cytopathic effect / XTT ; value: 29 µM
COC1=C(C2=C(Cl)C(=O)c3ccccc3C2=O)C(=O)c2ccccc2C1=O ; strain: IIIB ; method: cytopathic effect / MTT ; value: 1.7 µM
CCCCCCCCCC[N+](C)(C)CCCNCc1c(O)cc2c(c1O)-c1cc(ccc1O)[C@H]1NC(=O)[C@@H]3NC(=O)C4NC(=O)[C@@H](Cc5ccc(c(Cl)c5)Oc5cc3cc(c5O)Oc3ccc(cc3Cl)[C@@H](O)[C@H](NC1=O)C(=O)N[C@@H]2C(=O)O)NC(=O)[C@H](N)c1ccc(O)c(c1)Oc1cc(O)cc4c1 ; mutations: RT-Y181C ; method: syncytia ; value: 8.5 µM
CCCC1=C(C(=O)Nc2ccc(Cl)c(C(=O)OC)c2)SCCO1 ; strain: Nevirapine-resistant (RT V106A) ; mutations: RT-V106A ; method: syncytia ; value: >10 µg/mL
O=C1c2ccccc2C(=O)N1CC1OC1CCl ; method: syncytia ; value: >100 µM
O=c1ccn([C@H]2C=C[C@@H](CO)O2)c(=O)[nH]1 ; strain: IIIB ; method: syncytia ; value: >250 µM
CC(=O)Nc1ccc(S(=O)(=O)N(CC(C)C)C[C@@H](O)[C@H](Cc2ccccc2)NC(=O)OC(C)(C)C)cc1 ; strain: IIIB ; method: p24 ; value: <1.001 µM
CC(C)CN(CC(O)C(=O)N1CSC[C@H]1C(=O)NC(C)(C)C)S(=O)(=O)c1ccccc1 ; strain: IIIB ; method: p24 ; value: <1 µM
Nc1nccc(OC[C@@H]2O[C@H](CO)[C@@H](O)[C@H]2O)n1 ; strain: IIIB ; method: syncytia ; value: >100 µM
CC(C)C(=O)Oc1ccc(COP(=O)(OCc2ccc(OC(=O)C(C)C)cc2)OP(=O)([O-])OC[C@@H]2CC[C@H](n3ccc(=O)[nH]c3=O)O2)cc1 ; strain: IIIB ; method: syncytia ; value: >50 µM
COc1ccc(S(=O)(=O)N(CC(C)C)C[C@@H](O)CCc2ccccc2C(=O)NC(C)(C)C)cc1 ; strain: IIIB ; method: p24 ; value: <1 µM
Cc1cc2c(cc1Cl)Sc1ncc(C)n1S2(=O)=O ; method: cytopathic effect / XTT ; value: 0.94 µM
O=C1c2ccccc2C(=O)N1C/C=C/Cn1ccc(=O)[nH]c1=O ; method: syncytia ; value: >100 µM
Nc1cc(OC[C@H]2CC[C@@H](CO)O2)ncn1 ; strain: IIIB ; method: syncytia ; value: >250 µM
O=c1[nH]c(=O)n([C@@H]2C=C[C@H](CO)O2)cc1CCO ; strain: LAI ; method: RT activity ; value: 41 µM
COC(=O)Oc1ccc(NC(=O)C2=C(C)OCCS2)cc1C(=O)OC(C)C ; strain: IIIB ; method: syncytia ; value: 0.7 µg/mL
COC(=O)C(C)NP(=O)(OC[C@H]1S[C@@H](n2cc(F)c(=O)[nH]c2=O)C[C@@H]1O)Oc1ccccc1 ; value: 21.5 µM
COC(=O)Cc1cn([C@@H]2C=C[C@H](CO)O2)c(=O)[nH]c1=O ; strain: LAI ; method: RT activity ; value: >100 µM
C/C=C/CSc1cc(NC(=S)c2ccoc2C)ccc1Cl ; method: syncytia ; value: 0.017 µM
Nc1ccnc(OC[C@H]2CC[C@@H](COCc3ccccc3)O2)n1 ; strain: IIIB ; method: syncytia ; value: >250 µM
NC/C=C/Cn1cnc2c(N)ncnc21 ; method: syncytia ; value: >50 µM
Nc1nc(OC[C@H]2CC[C@@H](COCc3ccccc3)O2)cc(OC[C@@H]2CC[C@H](COCc3ccccc3)O2)n1 ; strain: IIIB ; method: syncytia ; value: >10 µM
COc1cccc(C(=O)C2C(c3ccc(Cl)cc3)C(C#N)(C(N)=O)C3CCc4cc(C)ccc4N23)c1 ; method: luciferase ; value: 10 µM
CC(C)CCC[C@@H](C)[C@H]1CC[C@H]2[C@@H]3CC[C@H]4C[C@@H](CCC=C(c5cc(Cl)c(O)c(C(=O)O)c5)c5cc(Cl)c(O)c(C(=O)O)c5)CC[C@]4(C)[C@H]3CC[C@]12C ; strain: IIIB ; method: cytopathic effect / XTT ; value: 7 µM
CC(C)=CCC[C@]1(C)C=Cc2c(ccc3c2C(=O)C(O)=C(C2=C(C4=C(O)C(=O)c5c(ccc6c5C=C[C@@](C)(CCC=C(C)C)O6)C4=O)C(=O)c4c(ccc5c4C=C[C@@](C)(CCC=C(C)C)O5)C2=O)C3=O)O1 ; strain: IIIB ; method: cytopathic effect / MTT ; value: 0.06 µM
O=c1ccn([C@@H]2C[C@H](CO)C[C@H]2CO)c(=O)[nH]1 ; value: >100 µg/mL
O=C(NCCCc1cn([C@H]2C=C[C@@H](CO)O2)c(=O)[nH]c1=O)C(F)(F)F ; strain: LAI ; method: RT activity ; value: >100 µM
CCOP(=O)(OCC)C(NC(=O)c1ccccc1)C(C(=O)N[C@H](CO)Cc1ccccc1)C(=O)N[C@H](CO)Cc1ccccc1 ; strain: LAI/3B ; method: XTT ; value: 53 µM
CCCCCCC(=O)Oc1ccc(COP(=O)(OCc2ccc(OC(=O)CCCCCC)cc2)OP(=O)([O-])OC[C@@H]2CC[C@H](n3ccc(=O)[nH]c3=O)O2)cc1 ; strain: IIIB ; method: syncytia ; value: 26 µM
OC[C@H]1CC(n2cnc3c(NC4CC4)ncnc32)C[C@@H]1CO ; value: >100 µg/mL
O=C(Cc1cn([C@H]2C=C[C@@H](CO)O2)c(=O)[nH]c1=O)NCCCCCCCCCCCCNC(=O)c1c2ccccc2nc2ccccc12 ; strain: LAI ; method: RT activity ; value: >10 µM
COc1cc(OC[C@H]2CC[C@@H](COCc3ccccc3)O2)ncn1 ; strain: IIIB ; method: syncytia ; value: >10 µM
CC1=C(C(=O)Nc2ccc(Cl)c(C(=O)OC3CCCCC3C)c2)SCCO1 ; strain: Nevirapine-resistant (RT V106A) ; mutations: RT-V106A ; method: syncytia ; value: 0.6 µg/mL
Cc1cn(C2OC(CO[Si](C)(C)C(C)(C)C)C3(OS(=O)(=O)C=C3N)C2O[Si](C)(C)C(C)(C)C)c(=O)n(/C=C/CO)c1=O ; strain: E138K ; method: syncytia ; value: >2 µM
COc1ccc2c(c1)C(O)=C(C1=C(I)C(=O)c3ccccc3C1=O)C(=O)C2=O ; strain: IIIB ; method: cytopathic effect / MTT ; value: 3.7 µM
Clc1ccccc1C1SCc2nc3ncccc3n21 ; strain: RF ; method: cytopathic effect / XTT ; value: >9.04 µM
Cc1occc1C(=S)Nc1ccc(Cl)c(/C=N/OC(C)(C)C)c1 ; strain: IIIB ; mutations: RT-Y181C ; method: syncytia ; value: 0.214 µM
COc1ccc(S(=O)(=O)N(CC2CCCC2)C[C@@H](O)CN(CCc2ccc(O)cc2)C(=O)O[C@H]2CCOC2)cc1 ; strain: IIIB ; method: p24 ; value: <0.1 µM
Cc1cn(C2OC(CO[Si](C)(C)C(C)(C)C)C3(OS(=O)(=O)C=C3N)C2O[Si](C)(C)C(C)(C)C)c(=O)n(CCCNC(=O)c2ccc(C(=O)c3ccccc3)cc2)c1=O ; strain: E138K ; method: syncytia ; value: >50 µM
COC1=C(C2=C(C3=C(O)C(=O)c4ccccc4C3=O)C(=O)c3ccccc3C2=O)C(=O)c2ccc3c(c2C1=O)C=CC(C)(C)O3 ; strain: IIIB ; method: cytopathic effect / MTT ; value: 6.7 µM

A second listing of 4 rows from above:

SMILES | strain | mutations | method | value
Cc1cc(Cl)cc2c1S(=O)(=O)n1c(C)cnc1S2 |  |  | cytopathic effect / XTT | 9 µM
CC(=O)Nc1nc2c(ncn2C/C=C\CN2C(=O)c3ccccc3C2=O)c(=O)[nH]1 |  |  | syncytia | >100 µM
COc1ccc(S(=O)(=O)N(CC(O)CN(CC2CCCC2)S(=O)(=O)c2ccccc2)CC2CCCC2)cc1 | IIIB |  | p24 | <1 µM
Cc1ccc(CSc2cc(NC(=S)c3ccoc3C)ccc2Cl)cc1 |  |  | syncytia | 0.312 µM